This is an account of results in PubChem BioAssay AID504621 (Broad Institute, 2011).

The list shows a part of the results, in another mix than the full data. Active and inactive are the calls of the source.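 Rule for the calls: active = every replicate shows inhibition above about 80%, whatever the replicate mean (limit read from the data); inconclusive = mean inhibition reaches the set limit but some replicate falls short; inactive = the rest.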

What is called inhibition is the relative decrease from the control value, in per cent.

This experiment can be described thus: growth inhibition of PfHsp90-expressing yeast, primary screen, antimalarial PfHsp90 inhibitor project, S. cerevisiae, BacTiter-Glo luminescence, single point, set 2 (AID 504621).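 Note: yeast relying on Plasmodium falciparum Hsp90 in place of its own; 0% = DMSO neutral controls and 100% = 20 µM radicicol positive controls.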 To be noted: BacTiter-Glo ATP, 48 h, at 9.4 µM, stronger effect = higher value, yeast lacking PDR1 and PDR3 efflux regulators.
With `COc1ccc(C(=O)NCC2(N3CCOCC3)CCCCC2)cc1OC`, the inhibition was inactive: 30.6%.
Under `COc1cc(C(=O)NCC2(N3CCOCC3)CCCCC2)cc(OC)c1C` stands inactive: -33%; under `O=C(NCC1(N2CCOCC2)CCCCC1)c1cc(Br)ccc1Cl`, inactive: -4.02%.
Under `O=C(OC1CN2CCC1CC2)C1c2ccccc2C=Cc2ccccc21` (stereo not drawn) stands inactive: 3.03%.
Under `CCOC(=O)N1CCC(Nc2ccc(C)cc2)CC1` stands inactive: -11.6%; under `N/C(=N\O)c1c(N)no[n+]1[O-]`, inactive: -65.5%.
Consider `N#Cc1ccc(C(=O)NCC2(N3CCCCC3)CCCCC2)cc1`, for which the inhibition is inactive: 17.9%.
Under `CC(C)(C)OC(=O)N1CCC(N(C(=O)c2ccccc2)c2ccc(Cl)cc2)CC1` stands inactive: -8.66%; under `CN(C)C1(CNC(=O)c2cccc(C#N)c2)CCCCC1`, inactive: -1.28%; under `c1ccc(CN2CCC(Nc3ccccc3)CC2)cc1`, inactive: -5.69%.
Under `CCCN1CCC(Nc2cc(OC)cc(OC)c2)CC1` stands inactive: -20.2%.
Under `Cc1cc(N(CCCl)CCCl)ccc1C=O` stands inactive: 10.3%.
For the compound `Fc1ccccc1NC1CCN(Cc2ccccc2)CC1`, the inhibition was inactive: -6.45%.
For `Cc1ccc(NC2(C#N)CCN(Cc3ccccc3)CC2)cc1`, the inhibition was inactive: 10.8%.
Under `COc1cc(OC)cc(C(=O)NCC2(N3CCCCC3)CCCCC2)c1` stands inactive: 6.93%; under `O=C(NCC1(N2CCCCC2)CCCCC1)c1ccco1`, inactive: -5.91%.
In the case of `Cn1c(=O)[nH]cc(N(CCCl)CCCl)c1=O`, the inhibition is inactive: -5.12%.
Under `Cc1ccccc1NC1(C#N)CCN(Cc2ccccc2)CC1` stands inactive: 16.9%; under `CCN1CCC(Nc2cccc(F)c2)CC1`, inactive: -4.22%.
Under `CC(C)(C)OC(=O)N1CCC(Nc2ccccc2)CC1` stands inactive: 17.5%; under `O=C(O)C1(Nc2ccccc2)CCN(Cc2ccccc2)CC1`, inactive: 32.1%.
On to `CCCOc1ccc(C(=O)NCC2(N(C)C)CCCCC2)cc1`, for which the inhibition was inactive: -5.63%.
Under `CCOc1ncccc1C(=O)NCC1(N2CCOCC2)CCCCC1` stands inactive: 11.2%; under `CN1CCC(Nc2ccc(F)c(Cl)c2)CC1`, inactive: -5.66%.
As to `CN1CCC(Nc2ccc(Cl)cc2)CC1`, the inhibition is inactive: -8.48%.
Under `COc1cc(OC)cc(C(=O)NCC2(N3CCOCC3)CCCCC2)c1` stands inactive: 2.67%; under `COc1cccc(C(=O)N(c2cc(C)cc(C)c2)C2CCN(C(=O)OC(C)(C)C)CC2)c1`, inactive: -3.84%; under `CCC(CO)(C(=O)OC1CN2CCC1CC2)c1ccccc1` (stereo not drawn), inactive: 0.251%.
Under `CSc1ccccc1C(=O)NCC1(N2CCCCC2)CCCCC1` stands inactive: -24.9%; under `Cc1cccc(NC2(C#N)CCN(Cc3ccccc3)CC2)c1`, inactive: -8.21%.
For `COc1ccc(C(=O)NCC2(N3CCCCC3)CCCCC2)cc1`, the inhibition was inactive: 2.8%.
Under `COc1ccc(C(=O)NCC2(N3CCCCC3)CCCCC2)c(OC)c1OC` stands inactive: 9.48%; under `CC(C)(C)OC(=O)N1CCC(N(C(=O)c2ccccc2)c2ccc(F)cc2)CC1`, inactive: -4.83%.
Under `O=C(NCC1(N2CCCCC2)CCCCC1)c1ccc(=O)[nH]c1` stands inactive: 10.3%; under `O=C(NCC1(N2CCCCC2)CCCCC1)c1ccc(Cl)s1`, inactive: 22.1%.
Under `N#CC1(Nc2ccccc2)CCN(Cc2ccccc2)CC1` stands inactive: -13.7%.
Regarding `O=C(OC1CN2CCC1CC2)C1c2ccccc2Oc2ccccc21` (stereo not drawn), the inhibition is inactive: -10.7%.
Take `COc1ccc(Cl)cc1C(=O)NCC1(N2CCOCC2)CCCCC1`: the inhibition is inactive: -5.83%.
Under `CCOC(=O)N1CCC(Nc2ccc(OC)cc2)CC1` stands inactive: -12.1%; under `Cc1cc(C)cc(N(C(=O)c2ccccc2)C2CCN(C(=O)OC(C)(C)C)CC2)c1`, inactive: -14.8%.
Consider `O=C(NCC1(N2CCOCC2)CCCCC1)c1cc2ccccc2o1`, for which the inhibition is inactive: 0.723%.
Under `O=P1(N(CCCl)CCCl)SCCCS1` stands inactive: 13.3%; under `CCCCOc1ccc(C(=O)NCC2(N3CCOCC3)CCCCC2)cc1`, inactive: 11.6%; under `O=C(NCC1(N2CCCCC2)CCCCC1)c1ccc(F)cc1`, inactive: 19%.
Under `COc1ccc(NC2CCN(CCc3ccccc3)CC2)c(OC)c1` stands inactive: 20.5%.
Under `CCOC(=O)N1CCC(Nc2ccc(F)cc2)CC1` stands inactive: -15.4%; under `O=C1CCN(Cc2ccccc2)CC1`, inactive: 9.03%.
Regarding `CCOc1ccc(C)cc1CN(CCCl)CCCl`, the inhibition is inactive: 11.6%.
Take `CCOC(=O)N1CCC(Nc2cccc(C)c2)CC1`: the inhibition was inactive: -9.1%.
Under `COc1cc(C(=O)NCC2(N(C)C)CCCCC2)ccc1OC(F)F` stands inactive: -11%; under `CCN1CCC(Nc2ccc(Cl)cc2)CC1`, inactive: 7.11%; under `N#CC1(Nc2ccccc2)CCN(CCc2ccccc2)CC1`, inactive: 6.84%.
Under `O=C(NCC1(N2CCCCC2)CCCCC1)c1cccc([N+](=O)[O-])c1` stands inactive: 3.6%; under `CSc1ccc(C(=O)NCC2(N3CCOCC3)CCCCC2)cc1`, inactive: 4.26%; under `O=C(NCC1(N2CCCCC2)CCCCC1)c1ccc(OC(F)F)cc1`, inactive: 5.45%.
Regarding `COc1cc(C(=O)NCC2(N3CCCCC3)CCCCC2)ccc1OC(F)F`, the inhibition is inactive: -43.6%.
Under `CN1CCN(CCOC(=O)C(O)(c2ccccc2)c2ccccc2)CC1` stands inactive: 3.56%; under `COc1ccc(NC2CCN(C(=O)OC(C)(C)C)CC2)cc1`, inactive: -41.1%; under `CC(C)c1ccc(C(=O)NCC2(N3CCOCC3)CCCCC2)cc1`, inactive: 7.41%.
As to `O=C(NCC1(N2CCCCC2)CCCCC1)c1cccc(C(F)(F)F)c1`, the inhibition is inactive: 20.7%.
Under `COc1cc(OC)c(C(=O)NCC2(N(C)C)CCCCC2)cc1OC` stands inactive: -0.271%; under `O=C(NCC1(N2CCOCC2)CCCCC1)c1cc(F)c(F)cc1Cl`, inactive: 5.23%.
Under `CC(C)c1ccc(NC2CCN(C(=O)OC(C)(C)C)CC2)cc1` stands inactive: -74.9%.
In the case of `COc1ccc(CN(CCCl)CCCl)cc1Cl`, the inhibition was inactive: 5.95%.
Under `CN(C)c1cccc(C(=O)NCC2(N3CCCCC3)CCCCC2)c1` stands inactive: -23.5%.
Under `CCCOc1ccc(C(=O)NCC2(N(C)C)CCCCC2)cc1OC` stands inactive: 3.37%; under `CN1CCC(Nc2cccc(F)c2)CC1`, inactive: -25.7%.
Under `O=C(NCC1(N2CCCCC2)CCCCC1)c1cncc(Br)c1` stands inactive: -10.7%.
